Values joined by “and” are separate entries in the source; they are usually repeats but may differ in a detail not shown here. Equal values may be shown once.

The target in assay [1] is T1, mutant HCV protease R155T (Hepatitis C virus genotype 1a, UniProt P27958, A1027M/R1181T).
T1 construct: A DNA fragment encoding Met^1-Ser^181 of the HCV NS3 protease was amplified; made in house; host or cells: E. coli BL21 (DE3)
The assay is classed as biochemical. The note with it: apparently fold change vs wild-type.

In assay [2] the target is HCV NS3 protease V36L mutant (Hepatitis C virus genotype 1a, UniProt P27958, A1027M/V1062L). In words: biochemical.
The target of assay [3] is HCV NS3 protease R155K mutant (Hepatitis C virus genotype 1a, UniProt P27958, R1181K). Description: Enzymatic IC50 assay, HCV NS3 serine protease domain. Particulars: each line a patient-specific clone.
Assay [4] has as its target HCV NS3 protease R155T mutant (Hepatitis C virus genotype 1a, UniProt P27958, R1181T). In words: biochemical. Particulars: each line a patient-specific clone.

As a reminder, the IC50 is the concentration that inhibits the measured activity by half. Lower therefore signals greater potency. As for `COc1ccc2c(O[C@@H]3C[C@H]4C(=O)N[C@]5(C(=O)O)C[C@H]5/C=C\CCCCC[C@H](NC(=O)OC5CCCC5)C(=O)N4C3)cc(-c3csc(NC(C)C)n3)nc2c1` [BILN 2061], the “Resistance, Enzyme Assay” value in assay [1] is recorded as 72. The IC50 in assay [2] is 2.1 nM; in assay [3] it was 632 nM and > 840 nM; in assay [4], 696 nM and 799 nM.

These data come from patent US8501450B2, “Hepatitis C virus variants” (priority 2005, dated 2013).
